Pooled drug test results. Numbers come from NIAID ChemDB, via PubChem.

All rows: tests in culture; agent: Mycobacterium tuberculosis

Blank or dashed fields: not listed here. Inhibition is in % at the dose shown (toxicity tests: loss of growth or viability). a–b is a range or a potency band. MIC bound comes from a single tested concentration. Rows are shuffled and stem from different studies.

compound,strain or isolate,method,mutations,read-out,dose,cells,result
CNC(=O)NC1C(CO)OC2OC(C)(C)OC21,H37Rv,BACTEC,,inhibition,12.5 µg/mL,,6%
COc1ccccc1CCNCCNCCC(c1ccccc1)c1ccccc1,,,,MIC,,,12.5 µM
CC[C@@H](CO)NCCN[C@@H](CC)CO,M21,resazurin,MDR,MIC,,,>8 µg/mL
CN[C@@H]1[C@H](O[C@H]2[C@H](O[C@H]3[C@H](O)[C@@H](O)[C@H](N=C(N)N)[C@@H](O)[C@@H]3N=C(N)N)O[C@@H](C)[C@]2(O)C=O)O[C@@H](CO)[C@H](O)[C@H]1O,TN1521 (BU),,,MIC,,,>2 µg/mL
CN(C)CCNC(=O)c1cccc2nc3c(ccc4ccccc43)nc12.Cl,H37Rv,,,MIC,,VERO,3.13 µg/mL
c1ccc(CN(Cc2ccccc2)Cc2ccccc2)cc1,H37Rv,,,MIC,,,>100 µg/mL
c1ccc([C@H]2C[C@@H]2NCCNC2CCCCCCC2)cc1,,,,MIC,,,25 µM
Cc1ccc(O)c(C(=O)c2ccccc2C(=O)O)c1,H37Rv,,,MIC,,,100 µg/mL
CO/C(C)=C1/NC(=O)[C@H]([C@@H](C)O)NC(=O)c2csc(n2)-c2cc(O)c(-c3nc(C(=O)NNC(=O)c4cc(-c5ccco5)[nH]n4)cs3)nc2-c2csc(n2)[C@@H]2COC(=O)c3c4c5c(cccc5n3O)COC(=O)[C@@H](O[C@H]3C[C@](C)(O)[C@H](N(C)C)[C@H](C)O3)[C@@H](OC4)[C@H](NC(=O)c3csc1n3)c1nc(cs1)C(=O)N2,Clinical isolate 565,broth dilution,Multidrug-resistant,MIC,,,>100 µM
COc1cc(OC)c([C@H]2OC(=O)C3C2C(=O)O[C@@H]3c2cc(OC)c(OC)cc2OC)cc1OC,H37Rv,BACTEC,,inhibition,12.5 µg/mL,,0%
CCCCCCCCCCCNCCNCCc1ccc(OC)c(OC)c1,,,,MIC,,,12.5 µM
CCOc1cc2oc3cc(OCC)c(OC)c(CCC(C)C)c3c(=O)c2c(O)c1CCC(C)C,H37Ra,resazurin,,MIC,,,>200 µg/mL
NNC(=O)c1ccncc1,Clinical isolate 13923,broth dilution,,MIC,,,≤0.2 µM
C[C@H]1COc2c(N3CCN(C)CC3)c(F)cc3c(=O)c(C(=O)O)cn1c23,Isolate 4,,,MIC,,,2 µg/mL
CO/C(C)=C1/NC(=O)[C@H]([C@@H](C)O)NC(=O)c2csc(n2)-c2cc(O)c(-c3nc(C(=O)NCCCN4CCOCC4)cs3)nc2-c2csc(n2)[C@@H]2COC(=O)c3c4c5c(cccc5n3O)COC(=O)[C@@H](O[C@H]3C[C@](C)(O)[C@H](N(C)C)[C@H](C)O3)[C@@H](OC4)[C@H](NC(=O)c3csc1n3)c1nc(cs1)C(=O)N2,Clinical isolate 10525,broth dilution,Rifampicin- and isoniazid-resistant,MIC,,,≤25 µM
N[C@@H]1CN(c2c(F)cc3c(=O)c(C(=O)O)cn([C@@H]4C[C@@H]4F)c3c2Cl)CC12CC2,Clinical strain,resazurin,Gyrase Asp94Ala/Ala90Val,MIC,,,0.5–1 µg/mL
O=[N+]([O-])c1ccc(-c2csc(=[N+]3CCCCC3)s2)cc1,H37Rv,resazurin,,inhibition,6.25 µg/mL,,8%
CO/C(C)=C1/NC(=O)[C@H]([C@@H](C)O)NC(=O)c2csc(n2)-c2cc(O)c(-c3nc(C(=O)NCCc4c[nH]cn4)cs3)nc2-c2csc(n2)[C@@H]2COC(=O)c3c4c5c(cccc5n3O)COC(=O)[C@@H](O[C@H]3C[C@](C)(O)[C@H](N(C)C)[C@H](C)O3)[C@@H](OC4)[C@H](NC(=O)c3csc1n3)c1nc(cs1)C(=O)N2,Clinical Isolate 913,broth dilution,,MIC,,,10–100 µM
O=C1c2ccccc2C(=O)c2c(NCCO)cccc21,H37Rv,,,MIC,,,>100 µg/mL
CC1=C(C(=O)NNC(=O)Cc2ccccc2)CC(C(=O)NNC(=O)Cc2ccccc2)=C(C)N1,H37Rv,resazurin,,MIC bound,,,>6.25 µg/mL
C=C(NC(=O)c1csc(-c2nc3c(cc2O)-c2nc(cs2)C(=O)N[C@@H]([C@@H](C)O)C(=O)N/C(=C(\C)OC)c2nc(cs2)C(=O)N[C@@H]2c4nc(cs4)C(=O)N[C@@H](COC(=O)c4c5c6c(cccc6n4O)COC(=O)[C@@H](O[C@H]4C[C@](C)(O)[C@H](N(C)C)[C@H](C)O4)[C@H]2OC5)c2nc-3cs2)n1)C(N)=O,Clinical isolate 10975,broth dilution,Rifampicin- and isoniazid-resistant,MIC,,,≤25 µM
[B-]1n2ccc[n+]2[B-]n2ccc[n+]21,H37Rv,BACTEC,,MIC bound,,,≤128 µg/mL
CS(=O)(=O)c1ccc2ncccc2c1,H37Rv,,,MIC,,,>100 µg/mL
C[C@@H]1CN(c2c(F)c(N)c3c(=O)c(C(=O)O)cn(C4CC4)c3c2F)C[C@H](C)N1,Isolate 10,,,MIC,,,4 µg/mL
Fc1ccc(CNCCN(Cc2ccccc2)Cc2ccccc2)cc1,,,,MIC,,,25 µM
CO[C@H]1/C=C/O[C@@]2(C)Oc3c(C)c(O)c4c(O)c(c5c(c4c3C2=O)NC2(CCN(CC(C)C)CC2)N=5)=NC(=O)/C(C)=C\C=C\[C@H](C)[C@H](O)[C@@H](C)[C@@H](O)[C@@H](C)[C@H](OC(C)=O)[C@@H]1C,Strain 118 (Q513L),,,MIC,,,16 µg/mL
CC1(C)NC(=O)C(C)(C)NC1=O,H37Rv,BACTEC,,MIC bound,,,>12.5 µg/mL
CN(c1ccc(N(C)S(=O)(=O)c2cccc(N)c2)cc1)S(=O)(=O)c1cccc(N)c1,H37Rv,,,MIC,,,>100 µg/mL
CS(=O)(=O)N1COC(=O)C1c1ccccc1,H37Rv,BACTEC,,MIC bound,,,>12.5 µg/mL
NNC(=O)c1ccncc1,Isolate 16,,,MIC,,,1 µg/mL
CC(=O)NC[C@H]1CN(c2ccc(N3CCOCC3)c(F)c2)C(=O)O1,6S,,,MIC,,,0.5 µg/mL
O=C(COc1cnccn1)N/N=c1\scc(-c2ccc(Cl)cc2)n1-c1ccc(Cl)cc1Cl,H37Rv,,,MIC,,,11.9 µg/mL
O=C(O)c1ccc2c(c1)C(=O)c1ccccc1C2=O,H37Rv,,,MIC,,,<0.63 µg/mL
COC(=O)c1c(O)c2c(c3c1OC(C)(C)CC3)OC(C)(C)CC2,H37Rv,BACTEC,,MIC bound,,,>12.5 µg/mL
COc1ccc(-c2cs/c(=N\NC(=O)COc3cnccn3)n2CC(C)C)cc1,H37Rv,,,MIC,,,17 µg/mL
O=C(Nc1ccccc1O)c1cccc(S(=O)(=O)Nc2ccc3[nH]c(=S)[nH]c3c2)c1,H37Rv,,,MIC,,,>100 µg/mL
CC1OC(n2ccc(NC(=O)c3ccc(NC(=O)C(C)(N)CO)cc3)nc2=O)CCC1OC1OC(C)C(N(C)C)C(O)C1O,H37Rv,BACTEC,,MIC bound,,,≤128 µg/mL
O=C([O-])c1ccco1.[Na+],H37Rv,,,MIC,,,<0.1 µg/mL
NNC(=O)c1ccncc1,38396,,,MIC,,,<0.2 µg/mL
CN(c1ccccc1)S(=O)(=O)c1cccc([N+](=O)[O-])c1,H37Rv,resazurin,,inhibition,6.25 µg/mL,,-12%
CC1(C)[C@H]2CC[C@@H](CNCCNC34CC5CC(CC(C5)C3)C4)[C@@H]1C2,,,,MIC,,,12.5 µM
NNC(=O)c1ccncc1,M8,resazurin,,MIC,,,>2 µg/mL
COc1ccccc1CCNCCN1CC2(C)CC1CC(C)(C)C2,,,,MIC,,,50 µM
CCOc1cc(C)cc(C)c1N(CC)C(=O)CCC(=O)O,H37Rv,,,MIC,,,>100 µg/mL
COc1cc(OC)c(/C=C2\N=C(C)N(Nc3nnc(NN4C(=O)/C(=C\c5c(OC)cc(OC)cc5OC)N=C4C)c4ccccc34)C2=O)c(OC)c1,H37Rv,BACTEC,,MIC bound,,,>12.5 µg/mL
CC(C)n1c(-c2ccc(Cl)cc2Cl)cs/c1=N\NC(=O)COc1cnccn1,H37Rv,,,MIC,,,14 µg/mL
CC(CNC1CCCCCCC1)N[C@H]1C[C@H]2C[C@@H]([C@@H]1C)C2(C)C,,,,MIC,,,12.5 µM
COC(=O)c1cc(-c2ccc(C)cc2)c2c(=O)n(-c3ccccc3)[nH]c2n1,H37Rv,BACTEC,,inhibition,12.5 µg/mL,,0%
CN(CCOC(=O)Nc1ccccc1)CCOC(=O)Nc1ccccc1,H37Rv,,,MIC,,,100 µg/mL
Clc1ccc(CCNCCNCc2ccc3c(c2)OCO3)c(Cl)c1,,,,MIC,,,50 µM
O=C(Nn1cnn2c(=O)c3ccccc3nc2c1=O)c1ccccc1,H37Rv,resazurin,,MIC bound,,,>6.25 µg/mL
NCC(O)CO,H37Rv,,,MIC,,,>100 µg/mL
CO[C@H]1/C=C/O[C@@]2(C)Oc3c(C)c(O)c4c(O)c(c(/C=N/N5CCN(C6CCCC6)CC5)c(O)c4c3C2=O)NC(=O)/C(C)=C\C=C\[C@H](C)[C@H](O)[C@@H](C)[C@@H](O)[C@@H](C)[C@H](O)[C@@H]1C,Isolate 920492 rifampicin-resistant,,,MIC,,,>32 µg/mL
CO[C@H]1/C=C/O[C@@]2(C)Oc3c(C)c(O)c4c(=O)c(c5oc6cc(N7CCN(CC(C)C)CC7)cc(=O)c6nc5c4c3=C2O)NC(=O)/C(C)=C\C=C\[C@H](C)[C@H](O)[C@@H](C)[C@@H](O)[C@@H](C)[C@H](OC(C)=O)[C@@H]1C,Kurata,,,MIC,,,0.016 µg/mL
NCCCCCCNc1nccc(N2CCOCC2)n1,H37Rv,,,MIC,,,>100 µg/mL
O=C(Nc1ccc(Cl)cc1)c1cc(S(=O)(=O)N2CCNNC2=O)c(S)cc1Cl,H37Rv,resazurin,,MIC bound,,,>6.25 µg/mL
CCCCCOc1cc2oc3cc(O)c(CCC(C)C)c(O)c3c(=O)c2c(CCC(C)C)c1C(C)=O,H37Ra,resazurin,,MIC,,,>200 µg/mL
CCCCC(CC)CN1CN(CC(CC)CCCC)CC(C)(NCCN[C@H](CO)Cc2ccc(Cl)cc2)C1,,,,MIC,,,12.5 µM
N#CCCNc1cccc(C(F)(F)F)c1,H37Rv,,,MIC,,,>100 µg/mL
C/C(=N\NC(=O)c1cccnc1)c1cccc(/C(C)=N/NC(=O)c2cccnc2)n1,INH-r,,,MIC,,,>12.5 µg/mL
O=C1c2c(O)ccc(Cl)c2C(=O)c2c(O)ccc(Cl)c21,H37Rv,,,MIC,,,100 µg/mL
O=C1CCCCCN1c1ccccn1,H37Rv,BACTEC,,inhibition,12.5 µg/mL,,31%
C=CCOc1cc2oc3cc(O)c(CCC(C)C)c(O)c3c(=O)c2c(CCC(C)C)c1OC,H37Rv,resazurin,,MIC,,,3.12 µg/mL
C=C1C(=O)C2(C)OC2(C)C1C(=O)O,H37Rv,BACTEC,,MIC bound,,,>12.5 µg/mL
Cc1cccnc1N,H37Rv,,,MIC,,,>100 µg/mL
O=C1C2C3C=CC(O3)C2C(=O)N1/N=C/C(O)C(O)C(O)C(O)CO,H37Rv,BACTEC,,inhibition,12.5 µg/mL,,2%
COc1ccc(C2=CC(=O)C(c3ccc(OC)cc3)=CC2=O)cc1,H37Rv,,,MIC,,,>100 µg/mL
NCC[C@H](O)C(=O)N[C@@H]1C[C@H](N)[C@@H](O[C@H]2O[C@H](CN)[C@@H](O)[C@H](O)[C@H]2O)[C@H](O)[C@H]1O[C@H]1O[C@H](CO)[C@@H](O)[C@H](N)[C@H]1O,5S,,,MIC,,,2.5 µg/mL
OC(c1ccccc1)c1ccccc1,H37Rv,,,MIC,,,100 µg/mL
CCCOc1cc2oc3cc(O)c(CCC(C)C)c(O)c3c(=O)c2c(CCC(C)C)c1OC,M16,resazurin,MDR,MIC,,,6.25 µg/mL
CCOC(=O)C(C(=O)OCC)[N+](C)(C)C.[Br-],H37Rv,,,MIC,,,>100 µg/mL
CC(=O)OC1=C2C(C[C@H]3[C@@H]4CC=C5C[C@@H](OC(C)=O)CC[C@]5(C)[C@H]4CC[C@]23C)C(C(=O)NCc2ccccc2)C(C(=O)O)C1,H37Rv,resazurin,,inhibition,6.25 µg/mL,,1%
CC(C)c1cccc(N)c1,H37Rv,,,MIC,,,0.39 µg/mL
CO[C@H]1/C=C/O[C@@]2(C)Oc3c(C)c(O)c4c(O)c(c(/C=N/N5CCN(C)CC5)c(O)c4c3C2=O)NC(=O)/C(C)=C\C=C\[C@H](C)[C@H](O)[C@@H](C)[C@@H](O)[C@@H](C)[C@H](OC(C)=O)[C@@H]1C,50194,,,MIC,,,≥2 µg/mL
C(=C\c1ccccn1)/c1ccccc1,H37Rv,,,MIC,,,50 µg/mL
CCOC(=O)COc1cnccn1,H37Rv,,,MIC,,,>200 µg/mL

Repeating the final 5 entries:

{"compound": "CC(=O)OC1=C2C(C[C@H]3[C@@H]4CC=C5C[C@@H](OC(C)=O)CC[C@]5(C)[C@H]4CC[C@]23C)C(C(=O)NCc2ccccc2)C(C(=O)O)C1", "strain or isolate": "H37Rv", "method": "resazurin", "read-out": "inhibition", "dose": "6.25 µg/mL", "result": "1%"}
{"compound": "CC(C)c1cccc(N)c1", "strain or isolate": "H37Rv", "read-out": "MIC", "result": "0.39 µg/mL"}
{"compound": "CO[C@H]1/C=C/O[C@@]2(C)Oc3c(C)c(O)c4c(O)c(c(/C=N/N5CCN(C)CC5)c(O)c4c3C2=O)NC(=O)/C(C)=C\\C=C\\[C@H](C)[C@H](O)[C@@H](C)[C@@H](O)[C@@H](C)[C@H](OC(C)=O)[C@@H]1C", "strain or isolate": "50194", "read-out": "MIC", "result": "≥2 µg/mL"}
{"compound": "C(=C\\c1ccccn1)/c1ccccc1", "strain or isolate": "H37Rv", "read-out": "MIC", "result": "50 µg/mL"}
{"compound": "CCOC(=O)COc1cnccn1", "strain or isolate": "H37Rv", "read-out": "MIC", "result": ">200 µg/mL"}